B1: PR199_00255 (antibody, V domains shown)
VH: QVQLVESGGGVVQPGRSLRLSCAASGFTFSTYGMHWVRQAPGKGLEWVAVIWYNGINKHYADSVKGRFTISRDNSKNTLYLQMSSLRVEDTAVYYCARDWGTLTTLFDFWGQGTLVTVSS
VL: DIQMTQSPSSLSASVGERATITCRASQSISSHLNWYQQKPGKAPKFLIYGASSLQSGVPSRFSGSGSGTDFTLTISSLQPEDFATYYCQQSYSTPPWTFGQGTKVEIK
notes: also called IMM20279; PR190_00255
B2: PR200_00622 (antibody, V domains shown)
VH: QVQLVESGGGVVQPGRSLRLSCTASGFTFSTYGMHWVRQAPGKGLEWVAVISYDGSSKHYAESVKGRFTISRDNSNNTLYLQMNRLRAEDTAVYYCARDGQPPGWGNYFDYWGQGTLVTVAS
VL: SYVLTQPPSVSVAPGKTARITCGGNGIGSKSVYWYQQKPGQAPEVVVYDDSDRPSGIPERFSGSNSGNTATLTISRVEAGDEADYYCQVWDSSSDPWVFGGGTKLTVL
notes: also called IMM20253; PR200_00253
B3: PR194_00232 (antibody, V domains shown)
VH: EVQLVESGGGLVQPGGSLRLSCSASGFTVSSNYMSWVRQAPRKGLEWVSVIYAGGSTFYADSVKGRFTISRDNSKNTLLLQMNSLRAEDTAVYYCARDRGGYLDYWGQGTLVTVSS
VL: DIQMTQSPSSLSASVGDRVTITCRASQGISNYLAWYQQKPGKVPKLLIYAASTLQSGVPSRFSGSGSGTDFTLTISSLQPEDVATYYCQKYNSAPGLTFGGGTKVEIK
notes: also called IMM20190; PR194_00190
B4: PR193_00018 (antibody, V domains shown)
VH: EVQLVESGGGLVQPGGSLRLSCSASGFTFSSFWMSWVRQAPGKGLEWVATIREDGSEKYYVDSVKGRFSISRDNAKNSLYLQMNSLRAEDTAVYYCARSKWLRGSFDYWGQGTLVTVSS
VL: NFMLTQPHSVSESPGKTVTISCTRRSGSIASNYVQWYQQRPGSAPTTVIYEDNQRPSGVPDRFSGSIDSSSNSASLTISGLQTEDEADYYCQSYDSSNPPGASWVFGGGTKLTVL
notes: also called IMM20184; IMM200184

target: SARS-CoV-2 Spike receptor binding domain (RBD), reference (USA/WA_CDC-WA1/2020) (SARS-CoV-2, UniProt P0DTC2 319-591); assay: cell-based or functional assay

Point of comparison: B4, “Phagocytosis score at 0.6 nM” value 56.6. Against it:
- B1 — lower, 43.3
- B2 — lower, 49.5
- B3 — lower, 48.1

— patent US20220235118A1 (IMMUNOME, published 2022)
